A mixed list of measured activities; the numbers were collected in NIAID ChemDB.

Common to all: growth or infection tests; agent: Human cytomegalovirus; measure: EC50

ECn is the concentration giving n% inhibition of infection, replication or growth. Lines come from different laboratories, so protocols vary. An empty or dashed field is not shown.

| SMILES | strain | cell line | read by | result |
|---|---|---|---|---|
| Cc1cc(C)cc(Cn2c(=O)c(I)cn(Cc3ccccc3)c2=O)c1 | AD169 | - | - | >4.7 µM |
| N=c1ccc(=Nc2ccc(N)c3c(O)c4ccccc4c(O)c23)c2c(=O)c3ccccc3c(=O)c1=2 | EC | HFF | plaque count | 75 µM |
| O=C(NCCc1c[nH]c2ccccc12)C1=Cc2ccncc2CC1 | TOWNE | HFF | plaque count | 0.41 µM |
| O=C(O)C[C@H](NCCN[C@@H](CC(=O)O)C(=O)O)C(=O)O | U9070 (ganciclovir-resistant) | HEL | plaque count | 7.9 µg/mL |
| O=c1ccn(Cc2ccccc2)c(=O)[nH]1 | AD169 | - | - | >247 µM |
| C[C@@H](O)C1=C[C@@H](n2cnc3c(N)ncnc32)[C@H](O)[C@@H]1O | DAVIS (100 PFU) | HEL | cytopathic effect | 0.05 µg/mL |
| C[C@H](N)C(=O)OCP(=O)(OC[C@H]1O[C@@H](n2ccc3c(N)ncnc32)C[C@@H]1O)Oc1ccccc1 | DAVIS | HEL | - | >100 µM |
| Cc1cc(C)c(Nc2cc(S(=O)(=O)O)c(N)c3c2C(=O)c2ccccc2C3=O)c(C)c1 | EC | HFF | plaque count | 15 µM |
| Nc1ccn(C[C@@H](CO)OCP(=O)(O)O)c(=O)n1 | Ganciclovir- and HPMPC-resistant | HEL | plaque count | 0.1 µg/mL |
| Nc1ccn(C[C@@H](CO)OCP(=O)(O)O)c(=O)n1 | P | MRC-5 | plaque count | 0.8 µM |
| O=c1ccn(Cc2c(F)cccc2F)c(=O)n1-c1ccccc1 | AD169 | - | - | >64 µM |
| C[C@H](N)C(=O)OCP(=O)(OC[C@H]1O[C@@H](n2cnc3c(Cl)nccc32)C[C@@H]1O)Oc1ccccc1 | DAVIS | HEL | - | >100 µM |
| C/C=C1/CCC23C[C@H]1C[C@@H]2CC[C@H]1[C@]2(C)COC(C)(C)O[C@@H]2CC[C@@]13C | - | HFF | plaque count | >500 µM |
| Nc1nc2c(ncn2COC(CO)CO)c(=O)[nH]1 | DER530 (GCV HPMPC-resistant) | HEL | plaque count | 9.6 µg/mL |
| Cc1ccc(Cn2c(=O)ccn(CC#N)c2=O)cc1C | AD169 | - | - | 117 µM |
| C[C@H](O)C1=C[C@@H](n2cnc3c(N)ncnc32)[C@H](O)[C@@H]1O | AD-169 (100 PFU) | HEL | cytopathic effect | >100 µg/mL |
| Cc1ccc(Cn2c(=O)ccn(CC#N)c2=O)c(C)c1 | AD169 | - | - | 74 µM |
| CC(C)(C)C(=O)OCOC(=O)CN(CC(=O)OCOC(=O)C(C)(C)C)P(=O)(OC[C@H]1O[C@@H](n2cc(/C=C/Br)c(=O)[nH]c2=O)C[C@@H]1O)Oc1ccccc1 | DAVIS | HEL | - | >20 µM |
| O=C(O)P(=O)(O)O | AD169 | MRC-5 | plaque count | 18.52 µM |
| Nc1ccn(C[C@@H](CO)OCP(=O)(O)O)c(=O)n1 | AD169 | HEL | - | 0.8 µM |
| Cc1cc(C)nc(Cn2c(=O)ccn(Cc3c(F)cccc3F)c2=O)c1 | AD169 | - | - | >140 µM |
| C[C@@]1(CO)[C@H](O)CC[C@@]2(C)[C@H]1CC[C@H]1C[C@@H]3CC12CC1O[C@]13C | - | HFF | plaque count | >500 µM |
| Nc1c(S(=O)(=O)O)cc(Nc2cccc(S(=O)(=O)/C=C/S(=O)(=O)O)c2)c2c1C(=O)c1ccccc1C2=O | AD169 | HFF | cytopathic effect | 10 µM |
| C[C@@]1(CO)[C@H](O)CC[C@@]2(C)[C@H]1CC[C@H]1C[C@@H]3C[C@@]12CC[C@]31CO1 | - | - | plaque count | 0.9 µM |
| CN(C)Cc1ccc(Nc2ccc(N)c3c2C(=O)c2ccccc2C3=O)cc1 | AD169 | HFF | cytopathic effect | >10 µM |
| Cc1cc(C)cc(Cn2c(=O)c(C)cn(Cc3ccccc3)c2=O)c1 | AD169 | - | - | 12 µM |
| Nc1nccc2c1ncn2[C@@H]1C=C(CO)[C@@H](O)[C@H]1O | DAVIS (20 PFU) | HEL | plaque count | 0.05 µg/mL |
| Nc1cc(S(=O)(=O)O)c(O)c2c1C(=O)c1c(O)c(S(=O)(=O)O)cc(N)c1C2=O | AD169 | HFF | cytopathic effect | >100 µM |
| CC(C)COC(=O)C(O)Cn1cnc2c(N)ncnc21 | AD-169 (20 PFU) | HEL | plaque count | 11.75 µg/mL |
| CC(C)(C)C(=O)OCOC(=O)CN(CC(=O)OCOC(=O)C(C)(C)C)P(=O)(OC[C@H]1O[C@@H](n2ccc3c(N)ncnc32)C[C@@H]1O)Oc1ccccc1 | AD169 | HEL | - | >100 µM |
| Nc1ncnc2c1ncn2[C@@H]1C=C[C@@H](O)[C@H]1O | AD-169 (100 PFU) | HEL | cytopathic effect | 19.25 µg/mL |
| C=CS(=O)(=O)c1ccc(Nc2cc(S(=O)(=O)O)c(N)c3c2C(=O)c2ccccc2C3=O)cc1 | AD169 | HFF | cytopathic effect | 110 µM |
| C[C@@]1(O)[C@H](O)CC[C@@]2(C)[C@H]1CC[C@H]1C[C@@H]3CC12CC[C@]3(O)CSCc1ccccc1 | - | - | plaque count | 3.8 µM |
| N#CCn1ccc(=O)n(Cc2cccc(C#N)c2)c1=O | AD169 | - | - | >188 µM |
| Nc1c(S(=O)(=O)O)cc(Nc2ccc(S(=O)(=O)O)c(Nc3nc(Cl)nc(Cl)n3)c2)c2c1C(=O)c1ccccc1C2=O | EC | HFF | plaque count | 15 µM |
| COC(=O)CN(CC(=O)OC)P(=O)(OC[C@H]1O[C@@H](n2cnc3c(N)ccnc32)C[C@@H]1O)Oc1ccccc1 | DAVIS | HEL | - | >100 µM |

5 of the rows above, restated:

{"SMILES": "Nc1c(S(=O)(=O)O)cc(Nc2cccc(S(=O)(=O)/C=C/S(=O)(=O)O)c2)c2c1C(=O)c1ccccc1C2=O", "strain": "AD169", "cell line": "HFF", "read by": "cytopathic effect", "result": "10 µM"}
{"SMILES": "Nc1nccc2c1ncn2[C@@H]1C=C(CO)[C@@H](O)[C@H]1O", "strain": "DAVIS (20 PFU)", "cell line": "HEL", "read by": "plaque count", "result": "0.05 µg/mL"}
{"SMILES": "C[C@H](O)C1=C[C@@H](n2cnc3c(N)ncnc32)[C@H](O)[C@@H]1O", "strain": "AD-169 (100 PFU)", "cell line": "HEL", "read by": "cytopathic effect", "result": ">100 µg/mL"}
{"SMILES": "O=c1ccn(Cc2c(F)cccc2F)c(=O)n1-c1ccccc1", "strain": "AD169", "result": ">64 µM"}
{"SMILES": "Nc1c(S(=O)(=O)O)cc(Nc2ccc(S(=O)(=O)O)c(Nc3nc(Cl)nc(Cl)n3)c2)c2c1C(=O)c1ccccc1C2=O", "strain": "EC", "cell line": "HFF", "read by": "plaque count", "result": "15 µM"}